What all share (assay): cell-based or functional assay
Assay [1] deals with SARS-CoV-2 Alpha (B.1.1.7) spike (S) protein (SARS-CoV-2) (UniProt P0DTC2).
Assay [2] has as its target SARS-CoV-2 Victoria spike (S) protein (SARS-CoV-2).
Assay [3] has as its target SARS-CoV-2 spike (S) protein, Victoria strain (SARS-CoV-2).
Assay [4] addresses SARS-CoV-2 spike (S) protein, Omicron BA.1 (SARS-CoV-2).
Assay [5] concerns the target SARS-CoV-2 spike (S) protein, Omicron BA.1.1 (BA.1 + R346K) (SARS-CoV-2).
In assay [6] the target is SARS-CoV-2 spike (S) protein, Omicron BA.2 (SARS-CoV-2) (UniProt P0DTC2).
Assay [7] has as its target SARS-CoV-2 spike (S) protein, Omicron BA.3 (SARS-CoV-2).
The target in assay [8] is SARS-CoV-2 spike (S) protein, Victoria strain (Wuhan + S247R) (SARS-CoV-2).
Assay [9] concerns the target SARS-CoV-2 Gamma (P.1) spike (S) protein (SARS-CoV-2) (UniProt P0DTC2).
Assay [10] has as its target SARS-CoV-2 Victoria spike (S) protein (Wuhan + S247R) (SARS-CoV-2).
Assay [11] addresses SARS-CoV-2 spike (S) protein, Omicron BA.1.1 (SARS-CoV-2) (UniProt P0DTC2).
Assay [12] deals with SARS-CoV-2 spike (S) protein, Omicron BA.2 + D339H (SARS-CoV-2) (UniProt P0DTC2).
The target in assay [13] is SARS-CoV-2 spike (S) protein, Omicron BA.2 + G446S (SARS-CoV-2) (UniProt P0DTC2).
Assay [14] concerns the target SARS-CoV-2 spike (S) protein, Omicron BA.2.3.20 (SARS-CoV-2) (UniProt P0DTC2).
Assay [15] has as its target SARS-CoV-2 spike (S) protein, Omicron BA.2.75.2 (SARS-CoV-2) (UniProt P0DTC2).
Assay [16] addresses SARS-CoV-2 spike (S) protein, Omicron BA.3 (SARS-CoV-2) (UniProt P0DTC2).
The target of assay [17] is SARS-CoV-2 spike (S) protein, Omicron BA.4.6 (SARS-CoV-2) (UniProt P0DTC2).
The target of assay [18] is SARS-CoV-2 spike (S) protein, Omicron BA.4/5 (SARS-CoV-2) (UniProt P0DTC2).
Assay [19] has as its target SARS-CoV-2 spike (S) protein, Omicron BA.1 (SARS-CoV-2) (UniProt P0DTC2).
Assay [20] concerns the target SARS-CoV-2 Omicron BA.1 spike (S) protein of the live isolate (SARS-CoV-2).
In assay [21] the target is SARS-CoV-2 Omicron BA.1.1 spike (S) protein (SARS-CoV-2).
Assay [22] deals with SARS-CoV-2 spike (S) protein, Omicron BA.2.75 (SARS-CoV-2) (UniProt P0DTC2).

Turning to Ly-CoV-555 (antibody), the IC50 (ug/ml), authentic virus in [1] turned out to be 0.009 µg/mL; in [2], 0.006 µg/mL. Moreover, the IC50, pseudovirus in [3] came out at 2 ng/mL.
Regarding Known Antibody G (ADG20), the IC50, pseudovirus in assay [4] was 348 ng/mL; in assay [5], 253 ng/mL; in assay [6], above 10000 ng/mL; in assay [7], above 10000 ng/mL; in [8] it was 3 ng/mL.
In the case of ADG30 (antibody), the figures for the IC50 (ug/ml), authentic virus in assay [9] and in [2] were 0.002 µg/mL and 0.007 µg/mL, respectively. In addition, the IC50, pseudoviral neutralization in [10] was 14 ng/mL. The IC50, pseudovirus in assay [3] is 14 ng/mL.
On to Omi-18 (antibody), for which the IC50 against PV amounted to 2 ng/mL in assay [11]; 5 ng/mL in assay [6]; 6 ng/mL in assay [16]; 5 ng/mL in assay [18]; 8 ng/mL in [3]. The half-maximal inhibitory concentration (IC50) in [6] is 5 ng/mL; in [12], 3 ng/mL; in assay [13], 3 ng/mL. Further, the IC50 (pseudovirus neutralization) worked out at 5 ng/mL in [6]; 11 ng/mL in assay [14]; 4800 ng/mL in assay [15]; 6 ng/mL in [17]; 5 ng/mL in assay [18]; 8 ng/mL in assay [8].
In [19], Omi-12 yielded an IC50 against PV of 2 ng/mL.
Regarding AZD1061 (antibody), the results for the IC50 (ug/ml), authentic virus in assay [20] and in assay [2] were 3.49 µg/mL and 0.013 µg/mL, respectively. For the same substance, the IC50, pseudoviral neutralization in assay [10] stood at 2 ng/mL. Moreover, the IC50, pseudovirus in assay [3] was determined as 2 ng/mL.
As for Known Antibody C (AZD1061), the IC50, pseudovirus in [4] is 308 ng/mL; in assay [5], above 10000 ng/mL; in assay [6], 8 ng/mL; in assay [8], 2 ng/mL.
In the case of Known Antibody H (ADG30), the IC50, pseudovirus is above 10000 ng/mL in assay [4]; above 10000 ng/mL in assay [5]; above 10000 ng/mL in assay [6]; above 10000 ng/mL in [7]; 14 ng/mL in [8].
Take Known Antibody K (S309): the IC50, pseudovirus worked out at 94 ng/mL in [4], 138 ng/mL in assay [5], 228 ng/mL in assay [7] and 587 ng/mL in [8].
Consider REGN10933 (antibody), for which the IC50 (ug/ml), authentic virus in [2] was found to be 0.004 µg/mL. The IC50, pseudoviral neutralization in [10] turned out to be 1 ng/mL. Besides, the IC50, pseudovirus in assay [3] amounted to 1 ng/mL. The IC50 (pseudovirus neutralization) in assay [8] was 1 ng/mL.
Take Known Antibody A (REGN 10987): the IC50, pseudovirus in assay [4] is above 10000 ng/mL; in [5], above 10000 ng/mL; in assay [7] it was above 10000 ng/mL; in assay [8], 2 ng/mL.
Regarding ADG10 (antibody), the IC50 (ug/ml), authentic virus in assay [1] is 0.01 µg/mL; in assay [9], 0.003 µg/mL; in [2], 0.006 µg/mL. The IC50, pseudoviral neutralization in assay [10] is 7 ng/mL. In assay [3], this substance displayed an IC50, pseudovirus of 7 ng/mL.
Omi-18 returned an IC50 against PV in assay [19] of 2 ng/mL.
Take Omi-03 (antibody): the IC50 against PV in [11] worked out at 3 ng/mL; in assay [6], 8 ng/mL; in assay [18], 37 ng/mL; in [3] it was 3 ng/mL. Moreover, the IC50 in assay [6] was 8 ng/mL; in assay [12], 6 ng/mL; in [13], 5 ng/mL. The IC50 (pseudovirus neutralization) is 8 ng/mL in assay [6]; 20 ng/mL in [14]; 546 ng/mL in assay [15]; 6 ng/mL in assay [17]; 3 ng/mL in assay [8].
For the substance Known Antibody E (AZD7442), the IC50, pseudovirus turned out to be 232 ng/mL in [4]; 806 ng/mL in assay [5]; 8 ng/mL in assay [6]; 65 ng/mL in assay [7]; 1 ng/mL in assay [8].
On to Ly-CoV555 (antibody), for which the IC50, pseudoviral neutralization in assay [10] is 2 ng/mL. For the same substance, the IC50 (pseudovirus neutralization) in assay [8] is 22 ng/mL.
As for REGN10987 (antibody), the IC50 (ug/ml), authentic virus in [2] stood at 0.032 µg/mL. Further, the IC50, pseudoviral neutralization in assay [10] was 2 ng/mL. In assay [3], this substance had an IC50, pseudovirus of 2 ng/mL. Besides, in assay [8], the IC50 (pseudovirus neutralization) was found to be 2 ng/mL.
On to Known Antibody B (REGN 10933), for which the IC50, pseudovirus in assay [4] is above 10000 ng/mL; in assay [5] it was above 10000 ng/mL; in assay [6], above 10000 ng/mL; in assay [7], above 10000 ng/mL; in [8], 1 ng/mL.
For the substance AZD8895 (antibody), the IC50 (ug/ml), authentic virus was 1.15 µg/mL in [20], 6.08 µg/mL in [21] and 0.005 µg/mL in [2]. Besides, the IC50, pseudoviral neutralization in assay [10] amounted to 1 ng/mL. In assay [3], this substance registered an IC50, pseudovirus of 1 ng/mL. The IC50 (pseudovirus neutralization) in [8] came to 1 ng/mL.
Take Known Antibody D (AZD8895): the IC50, pseudovirus in [4] was 246 ng/mL; in assay [5], 100 ng/mL; in assay [7], above 10000 ng/mL; in [8], 1 ng/mL.
Omi-03: the IC50 against PV in [19] amounted to 5 ng/mL.
For the substance Known Antibody I (Ly-CoV-555), the IC50, pseudovirus in [4] is above 10000 ng/mL; in assay [5] it was above 10000 ng/mL; in [6] it was above 10000 ng/mL; in assay [7], above 10000 ng/mL; in [8], 2 ng/mL.
With Known Antibody J (Ly-CoV16), the IC50, pseudovirus was above 10000 ng/mL in assay [4]; above 10000 ng/mL in assay [5]; above 10000 ng/mL in assay [6]; above 10000 ng/mL in assay [7]; 14 ng/mL in assay [8].
Take Known Antibody F (ADG10): the IC50, pseudovirus in assay [4] was above 10000 ng/mL; in assay [5], above 10000 ng/mL; in assay [6] it was above 10000 ng/mL; in [7], above 10000 ng/mL; in assay [8] it was 7 ng/mL.
The substance Omi-42 showed an IC50 against PV in assay [19] of 7 ng/mL.
The substance Ly-CoV16 (antibody) came in with an IC50 (ug/ml), authentic virus in assay [2] of 0.034 µg/mL. In addition, the IC50, pseudovirus in [3] was 14 ng/mL. For the same substance, in assay [8], the IC50 (pseudovirus neutralization) amounted to 14 ng/mL.
In the case of Omi-12 (antibody), the IC50 against PV in assay [11] was found to be 2 ng/mL; in [6] it was 3 ng/mL; in assay [22] it was 3 ng/mL; in assay [16], 6 ng/mL; in [18] it was 429 ng/mL; in assay [3] it was 6 ng/mL. Further, the IC50 in assay [6], in assay [12], in assay [13] and in assay [22] was 3 ng/mL throughout. For the same substance, the IC50 (pseudovirus neutralization) was 3 ng/mL in assay [6]; 8 ng/mL in assay [14]; 3 ng/mL in assay [22]; above 10000 ng/mL in assay [15]; 74 ng/mL in assay [17]; 429 ng/mL in assay [18]. The IC50 (pseudovirus neutralization) in assay [8] amounted to 6 ng/mL.
As to Omi-29 (antibody), the IC50 (pseudovirus neutralization) is 170 ng/mL in assay [17], 396 ng/mL in [18] and 14 ng/mL in [8]. The IC50 against PV in assay [18] was found to be 396 ng/mL; in [3] it was 14 ng/mL.

Broadly, the IC50 is the concentration needed to halve the response being measured.

For the origin of these results see patent US20230265170A1.
